From paper PMC8640094, “Diaportones A–C: Three New Metabolites From Endophytic Fungus Diaporthe foeniculina BZM-15” (Frontiers in Chemistry, 2021)

Tested on: SF-268 (CNS cancer)
Assay: MTT cytotoxicity assay, SF-268 cells
Assay type: cell-based, human
Settings: IC50 for LX-2 cell line/IC50 for SF286 cell line
Method: The cytotoxicity of all compounds against three human tumor cell lines, SF-268 (CNS cancer), MCF-7 (breast cancer), and HepG2 (hepatoma cancer), and normal cell line LX-2 was tested using the MTT assay. Adriamycin was used as a positive control. All cells were seeded into 96-well plates at 5 × 10^4 cells/ml and incubated at 37°C under a 5% CO2 atmosphere for 24 h. Then, the tested compounds were added. After 72 h, MTT solution was added into each well, which was further incubated. The cell-free supernatant was removed and formazan crystals were subsequently dissolved in DMSO. Optical density (OD) was recorded at 490 nm on a microplate reader to calculate the IC50 values.

In the case of `CC(C)[C@@H](C)/C=C/[C@@H](C)[C@H]1CCC(=O)[C@]23CC(=O)C4=CC(=O)CC[C@]4(C)[C@H]2CC[C@]13C` [compound 7, dankasterone A], the “SI Values (safety index)” value is reported as over 6.
